# US6891069B1, “Synthesis of 4-substituted phthalaldehyde” (Ethicon, Inc., priority 2004, dated 2005)
# Assay: pigskin staining test
# Parameters: species or system pig
# Conditions: about 10 μL on pigskin, about 24 hours, room temperature
Structure (SMILES),Staining Results (0.20% solution),Staining Results (0.14% solution)
"O=Cc1cccc(C=O)c1 [IPA, isophthalaldehyde, reference compound]",Non-Staining,–
"O=Cc1ccccc1C=O [OPA, phthalaldehyde]",–,Dark Staining
